Assay [1] addresses T1, BoNT/A1 (Hall hyper) (Clostridium botulinum). Put plainly: flow cytometry, yeast-displayed scFv, soluble toxin. For orientation: In flow cytometry, cells or beads pass a laser one at a time.
Assay [2] concerns the target T1, BoNT/A1 (Hall hyper). The assay is described as above. The source holds these as a separate data set.
Assay [3] addresses T1, BoNT/A1 (Hall hyper). Described as above. The source holds these as a separate data set.
Assay [4] deals with T1, BoNT/A1 (Hall hyper). In words: flow cytometry, yeast-displayed parental scFv.

What is called Kd is the free concentration of one partner at which half of the binding sites on the other are occupied at equilibrium, for simple one-to-one binding.

B1: 4A1 scFv (scFv)
scFv: QVQLVQSGGGLAQPGGSLRLSCAASGFTFGSYSMNWVRQAPGKGLEWVSSITGNSGLIYYADSVKGRFTVSRDNAKNSLFLHMHSLRADDTAVYYCARDPGWIYSDTSAAGWFDPWGHGTLVTVSSGGGGSGGGGSGGGGS[gap - about 100 residues]
As for B1, in assay [1], the Kd came to 7.4 nM.

B2: ING1 scFv (scFv)
scFv: QVQLQQSGGGLVQPGGSLRLSCAASGFTFSNYAMTWVRQAPGKGLEWVSSISVGGSDTYYADSVKGRFTVSRDNSKNTLLLQMNSLRAEDTAVYYCAKVRTKYCSSLSCFAGFDSWGQGTRVTVSSGGGGSGGGGSGGGGS[gap - about 100 residues]TFGGGTKVDIK
For B2, the equilibrium dissociation constant (Kd) in assay [1], in assay [2], in assay [3] and in assay [4] was 5.28 nM each time.

The values are drawn from patent publication US20150197559A1 (University of California, published 2015).
